Results: PMC6410080 (Viruses, 2019)
Structures can show the parent of a compound that is named as a salt. Where two headings read alike, the source gives them in different places.

Columns and labels:
[1] = system: SFV; format: cell-based, Semliki Forest virus
[2] = system: DENV-2; test: DENV-2 infection assay / secondary screen (E protein staining); format: cell-based, dengue virus serotype 2

Structure (SMILES)	SI [1]	SI DENV-2 (7 + 17 h) ([2]; TC50/IC50, Huh7, 7 + 17 h)	SI DENV-2 (24 h) ([2]; TC50/IC50, Huh7, 24 h)	SI SFV (7 h) [1]	SI DENV-2 (7 + 17 h) [2]	SI DENV-2 (24 h) [2]
CCN(CC)Cc1cc(Nc2ccnc3cc(Cl)ccc23)ccc1O [Amodiaquine, Amodiaquine dihydrochloride dihydrate]	>5.9	3.5	1.1			
CC(C)COCC(CN(Cc1ccccc1)c1ccccc1)N1CCCC1 (centres unmarked) [Bepridil, Bepridil hydrochloride]	3.7	3.2	1.9	3.7		
CNc1ccc2oc(C[C@H]3O[C@@]4(CC[C@H]3C)O[C@H]([C@H](C)C(=O)c3ccc[nH]3)[C@H](C)C[C@H]4C)nc2c1C(=O)O [Calcimycin]	6.8			6.8	>11.3	17.6
CCCCN(CCCC)CCC(O)c1cc2c(Cl)cc(Cl)cc2c2cc(C(F)(F)F)ccc12 (centres unmarked) [Halofantrine, Halofantrine hydrochloride]	2.5					
CCOC(=O)C1=C(C)NC(C)=C(C(=O)OCC)C1c1ccccc1/C=C/C(=O)OC(C)(C)C [Lacidipine]	1.2					
O=C1c2c(O)ccc(O)c2C(=O)c2c(NCCNCCO)ccc(NCCNCCO)c21 [Mitoxantrone, Mitoxantrone dihydrochloride]		4.0	2.2	6.2		
CC[C@@]1([C@@H]2O[C@@H]([C@H]3O[C@@](O)(CO)[C@H](C)C[C@@H]3C)C[C@@H]2C)CC[C@H]([C@]2(C)CC[C@]3(C[C@H](O)[C@@H](C)[C@@H]([C@@H](C)[C@@H](OC)[C@H](C)C(=O)O)O3)O2)O1 [Monensin, Monensin sodium salt]	>45	>11.1		>45		
Cc1ccc(S(=O)(=O)N[C@@H](Cc2ccccc2)C(=O)CCl)cc1 [N-p-Tosyl-L-PCK, N-p-Tosyl-L-phenylalanine chloromethyl ketone]		1.2	4.2			
C=C1C(=O)O[C@H]2[C@H]1CC/C(C)=C/CC[C@@]1(C)O[C@@H]21 [Parthenolide]		2.9	1.6	3.5		
O=C(c1ccc(OCCN2CCCCC2)cc1)c1c(-c2ccc(O)cc2)sc2cc(O)ccc12 [Raloxifene, Raloxifene hydrochloride]	>3.3	4.4	2.3	>3.3		
O=[N+]([O-])c1ccc2c(c1)S(=O)(=O)C=C2 [Stattic]		5.8	10.8			
CC(=O)/C=C1\C(=O)N(C)c2ccccc21 [Supercinnamaldehyde]		3.9	1.7			
